Measurements: the supplement of paper PMC9931576
Human monoclonal antibodies against the spike receptor-binding domain (heavy:light variable regions). IC50 against pseudoviruses bearing the spike of naturally observed variants; lower = stronger; >10 µg/ml means not reached at the top dose. No active / inactive call. The stated detection limit is 0.0005 µg/ml; values near or below 0.001 µg/ml lie at the floor of the assay.

B1: BD56-108 (protein)
chain 1: EVQLVQSGAEVKKPGTTVKISCKGSGFIFTNNYMQWVQQAPGKGLEWMGLVDPEDGETRYAENFQGRVTITADTSTDTSYMELSSLRSEDTAVYYCAAVAKYSSAWRNFDFWGQGTLVTVSS
chain 2: QTVVTQEPSLTVSPGGTVTLTCASSTGAVTSAYFPNWFQQKPGQPPRPLIYSTSNKHSWTPARFSGSLLGGKAALTLSGVQPEDEADYYCLLNHGHAHWVFGGGTKLTVL
B2: BD56-102 (protein)
chain 1: QVQLVQSGAEVKKPGSSVKVSCKASGGIFSRYSISWVRQAPGLGLEWMGRIIPILGIAIYAQKFQGRVTITADKSTSTAYMGLSSLRSEDSAVYYCARDLDPPQLRLGELALSFGFDIWGRGTLVTVSS
chain 2: QSVLTQPPSASGTPGQRVTISCSGSSSNIGSHTVSWYQQFPGTAPKLLIYSNNQRPSGVPDRFSGSKSGTSASLAISGLQSEDEADYYCAAWDDNLTGYYVFGTGTAVTVL
B3: BD56-106 (protein)
chain 1: QVQLVQSGAEVKKPGSSVKVSCKASRGTFSSYGISWVRQAPGQGLEWVGGIIPIFGTANYAQRFKGRVTITADESTSTAYMELSNLRSDDTGVYYCGRTYYYDSDGVAEGTDYWGQGTLVTVSS
chain 2: DIQLTQSPSFLSASVGDRVTITCRASQGISSYLAWYQQKPGEAPKLLIYAASTLQSGVPSRFSGSGSGTEFTLTISSLQPEDFATYYCQKLNSYPWTIGQGTKVEIK
B4: BD56-103 (protein)
chain 1: QITLKESDPTLVKPTQTLTLTCTFSGFSLNTSGVGVGWIRQPPGKALEWLALIFWNDDKRYSPSLTSRLTITKDTSKNQVVLTMSDVDPVDTATYFCAHKSRPYSVAYYDDYYFDYWGQGTLVSVSS
chain 2: SNELTQPPSVSVSPGQTARITCSGDAFPNQYAYWYQQKPGQAPVVVMYKDSERPSGIPERFSGSSSGTTVTLTISGVQAEDEAAYYCQTADSSGTVFGGGTKLTVL
B5: DH1043 (protein)
chain 1: QVQLVQSGAEVKKPGSSVKVSCKASGGTFSRYAINWVRQAPGQGLEWMGRIIPIFGIANYAQKFQGKVTITADKSTSTAYMELSSLRSEDTAVYYCARADYYYDSSGYFFDYWGQGTLVTVSS
chain 2: EIVLTQSPGTLSLSPGERATLSCRASQSVSSSYLAWYQQKPGQTPRLLIYGASSRATGIPARFSGSGSGTNFTLTISRLEPEDFAVYYCQQYSSSRTFGQGTKVEIK
B6: BD56-088 (protein)
chain 1: EVQLVESGGGLVQPGGSLRLSCSASGFTFSSFPMHWVRQAPGKGLEYVSSISSDGGITYYADSVKGRFTISRDNSKNTLYLQMSSLRAEDTAMYYCVKDKPLAPVDYFDYWGQGTLVIVSS
chain 2: DIQMTQSPSSLSASVGDRVTITCRASQSISRYLNWYQQKPGKAPKLLIYDASNLQSGVPSRFSGGGSGTDFTLTISSLQPEDFATYYCQQSYSTPDSFGQGTKLEIK

Molecular target: SARS-CoV-2 Omicron BA.1 spike pseudovirus
Test: pseudovirus neutralization IC50; higher = weaker neutralization
Method: (§1)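 Single-round VSV luciferase pseudovirus mixed with antibody dilutions for 1 h and put on Huh-7 cells for about a day; IC50 from the dose curve.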

Compared with B1, B2 is 1200-fold higher in “pseudovirus neutralization IC50” value: 0.00104 µg/mL for the first, 1.23 µg/mL for the second.

Going from B3 to B4, the “pseudovirus neutralization IC50” value rises from 0.171 µg/mL to 6.57 µg/mL (38-fold).

B5 and B6 cannot be ordered by “pseudovirus neutralization IC50” value: > 10 µg/mL for the first, > 10 µg/mL for the second.

Molecular target: SARS-CoV-2 Omicron BA.2 spike pseudovirus
Test: as above
Method: as §1

Going from B1 to B2, the “pseudovirus neutralization IC50” value rises from 0.000903 µg/mL to 1.75 µg/mL (1900-fold).

Compared with B3, B4 is 27-fold higher in “pseudovirus neutralization IC50” value: 0.198 µg/mL for the first, 5.39 µg/mL for the second.

B5 and B6 cannot be ordered by “pseudovirus neutralization IC50” value: > 10 µg/mL for the first, > 10 µg/mL for the second.

Molecular target: SARS-CoV-2 Omicron BA.2.75 spike pseudovirus
Test: as above
Method: as §1

First: B1
Second: B2
The “pseudovirus neutralization IC50” value of the first is 2300-fold lower: 0.0008 µg/mL for the first, 1.88 µg/mL for the second.

First: B3
Second: B4
The “pseudovirus neutralization IC50” value of the first is 36-fold lower: 0.23 µg/mL for the first, 8.24 µg/mL for the second.

B5 and B6 cannot be ordered by “pseudovirus neutralization IC50” value: > 10 µg/mL for the first, > 10 µg/mL for the second.

Molecular target: SARS-CoV-2 Omicron BA.5 spike pseudovirus
Test: as above
Method: as §1

First: B1
Second: B2
The “pseudovirus neutralization IC50” value of the first is 1.6-fold higher: 2.6 µg/mL for the first, 1.63 µg/mL for the second.

Going from B3 to B4, the “pseudovirus neutralization IC50” value rises from 0.172 µg/mL to 5.82 µg/mL (34-fold).

B5 and B6 cannot be ordered by “pseudovirus neutralization IC50” value: > 10 µg/mL for the first, > 10 µg/mL for the second.

Molecular target: SARS-CoV-2 Omicron BQ.1.1 spike pseudovirus
Test: as above
Method: as §1

First: B1
Second: B2
The “pseudovirus neutralization IC50” value of the first is higher: > 10 µg/mL for the first, 2.11 µg/mL for the second.

First: B3
Second: B4
The “pseudovirus neutralization IC50” value of the first is higher: > 10 µg/mL for the first, 3.53 µg/mL for the second.

B5 and B6 cannot be ordered by “pseudovirus neutralization IC50” value: > 10 µg/mL for the first, > 10 µg/mL for the second.

Molecular target: SARS-CoV-2 Omicron XBB spike pseudovirus
Test: as above
Method: as §1

Compared with B1, B2 is 1.9-fold lower in “pseudovirus neutralization IC50” value: 3.41 µg/mL for the first, 1.75 µg/mL for the second.

B3 and B4 are within 1.5-fold of each other in “pseudovirus neutralization IC50” value: 5.88 µg/mL for the first, 5.55 µg/mL for the second.

B5 and B6 cannot be ordered by “pseudovirus neutralization IC50” value: > 10 µg/mL for the first, > 10 µg/mL for the second.

Molecular target: SARS-CoV-2 early D614G spike pseudovirus
Test: as above
Method: as §1

First: B1
Second: B2
The “pseudovirus neutralization IC50” value of the first is 81-fold lower: 0.0194 µg/mL for the first, 1.58 µg/mL for the second.

Compared with B3, B4 is 24-fold higher in “pseudovirus neutralization IC50” value: 0.187 µg/mL for the first, 4.54 µg/mL for the second.

Going from B5 to B6, the “pseudovirus neutralization IC50” value rises from 0.0056 µg/mL to > 10 µg/mL.
